Consider two molecules from US20090041797A1 (ANGELICA THERAPEUTICS, published 2009).

This assay has as its target elongation factor-2 (EF-2) (rabbit (reticulocyte lysate)). The experiment in a line: cell-based or functional assay.

B1: null construct DT382(G53E) (enzyme)
chain: not shown
Consider B1, for which the “IC50 (IVTT, inhibition of protein synthesis)” value came out at 46.6 ng/12.5 µl.

B2: wild type DT382 (truncated diphtheria toxin, […] of DT387) (enzyme)
chain: not shown
As for B2, the “IC50 (IVTT, inhibition of protein synthesis)” value came to 20.3 ng/12.5 µl.
